The results in this text go back to paper PMC6919601, “Identification of Plasmodium dipeptidyl aminopeptidase allosteric inhibitors by high throughput screening” (PLoS ONE, 2019).

By UniProt entry, the sequences of proteins in these tests, tags left out.
UniProt Q8I1Y2, entry or part of it: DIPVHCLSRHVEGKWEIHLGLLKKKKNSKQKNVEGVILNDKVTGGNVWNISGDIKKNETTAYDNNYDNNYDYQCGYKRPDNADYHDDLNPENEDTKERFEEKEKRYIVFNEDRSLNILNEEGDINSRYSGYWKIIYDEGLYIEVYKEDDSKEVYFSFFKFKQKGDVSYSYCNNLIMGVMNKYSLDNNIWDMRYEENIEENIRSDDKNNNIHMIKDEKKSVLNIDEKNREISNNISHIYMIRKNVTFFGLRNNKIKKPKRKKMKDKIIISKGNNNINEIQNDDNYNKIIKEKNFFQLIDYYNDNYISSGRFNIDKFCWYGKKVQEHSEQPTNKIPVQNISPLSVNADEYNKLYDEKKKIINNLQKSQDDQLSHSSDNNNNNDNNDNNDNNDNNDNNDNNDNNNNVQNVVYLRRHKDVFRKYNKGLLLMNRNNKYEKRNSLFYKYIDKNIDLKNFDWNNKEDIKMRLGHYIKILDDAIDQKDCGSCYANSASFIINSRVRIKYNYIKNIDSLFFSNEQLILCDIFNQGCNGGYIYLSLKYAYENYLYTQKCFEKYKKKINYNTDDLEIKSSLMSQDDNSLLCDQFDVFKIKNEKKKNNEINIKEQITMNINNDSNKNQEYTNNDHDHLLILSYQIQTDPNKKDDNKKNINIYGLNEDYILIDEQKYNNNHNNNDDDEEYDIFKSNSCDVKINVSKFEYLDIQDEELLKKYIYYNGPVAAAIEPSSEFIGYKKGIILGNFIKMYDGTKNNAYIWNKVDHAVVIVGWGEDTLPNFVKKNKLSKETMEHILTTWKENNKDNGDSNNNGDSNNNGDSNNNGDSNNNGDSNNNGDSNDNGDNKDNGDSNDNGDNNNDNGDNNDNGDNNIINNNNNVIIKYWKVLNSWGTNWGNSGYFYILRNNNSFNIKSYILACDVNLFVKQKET

Bounds are passed on as bounds.

The test has as its target DPAP3 (Plasmodium falciparum, UniProt Q8I1Y2). To be noted: read-out: IC50 DPAP3; DPAP3 1 nM, nVal-nLeu(o-Bzl)-ACC at Km (1.4 μM); N.I. = no inhibition.

In general, IC50 refers to the concentration that inhibits the measured activity by half. As to “Brc1ccc(cc1)C(=O)c2nocc2C(=O)c3cccnc3 [SMDC112054]”, the IC50 is greater than 100 µM.

Consider “FC(F)(F)c1cc(nc(SCC(=O)N2CCOCC2)c1C#N)c3cccs3 [SMDC97214]”, for which the half-maximal inhibitory concentration (IC50) is roughly 100 µM.
